From patent US8137705B2 (priority 2005, dated 2012)

System: E. coli O157:H7
Assay: E. coli O157:H7 counts in water with rumen content treated with chlorine
Conditions: for E. coli O157:H7 (log10 cfu/ml) at min: 0 / E. coli O157:H7 (log10 cfu/ml) at min: 1 / E. coli O157:H7 (log10 cfu/ml) at min: 5 / E. coli O157:H7 (log10 cfu/ml) at min: 10 / E. coli O157:H7 (log10 cfu/ml) at min: 20: 5 ppm chlorine; for E. coli O157:H7 (log10 cfu/ml) at min: 0: 0 min; for E. coli O157:H7 (log10 cfu/ml) at min: 1: 1 min; for E. coli O157:H7 (log10 cfu/ml) at min: 5: 5 min; for E. coli O157:H7 (log10 cfu/ml) at min: 10: 10 min; for E. coli O157:H7 (log10 cfu/ml) at min: 20: 20 min
[1] = Water (control, no rumen content), 21° C.
[2] = water:rumen content 10:1, 21° C.
[3] = water:rumen content 25:1, 21° C.
[4] = water:rumen content 50:1, 21° C.
[5] = water:rumen content 100:1, 21° C.

In the case of chlorine, the “killing of 10^6-10^7 E. coli O157:H7/ml” value (5 ppm chlorine in water, no rumen content) is reported as “undetectable levels”, the “E. coli O157:H7 (log10 cfu/ml) at min: 0” value [1] is reported as <1.7 log10 cfu/ml and the “E. coli O157:H7 (log10 cfu/ml) at min: 1” value [1] is reported as <1.7 log10 cfu/ml. For the same substance, the “E. coli O157:H7 (log10 cfu/ml) at min: 5” value [1] was <1.7 log10 cfu/ml, the “E. coli O157:H7 (log10 cfu/ml) at min: 10” value [1] was <1.7 log10 cfu/ml and the “E. coli O157:H7 (log10 cfu/ml) at min: 20” value [1] was <1.7 log10 cfu/ml. For the same substance, the “E. coli O157:H7 (log10 cfu/ml) at min: 0” value [2] was 6.4 log10 cfu/ml, the “E. coli O157:H7 (log10 cfu/ml) at min: 1” value [2] was 6.4 log10 cfu/ml and the “E. coli O157:H7 (log10 cfu/ml) at min: 5” value [2] was 6.6 log10 cfu/ml. The “E. coli O157:H7 (log10 cfu/ml) at min: 10” value [2] was 6.7 log10 cfu/ml, the “E. coli O157:H7 (log10 cfu/ml) at min: 20” value [2] was 6.7 log10 cfu/ml and the “E. coli O157:H7 (log10 cfu/ml) at min: 0” value [3] was 6.4 log10 cfu/ml. The “E. coli O157:H7 (log10 cfu/ml) at min: 1” value [3] was 6.5 log10 cfu/ml, the “E. coli O157:H7 (log10 cfu/ml) at min: 5” value [3] was 6.6 log10 cfu/ml and the “E. coli O157:H7 (log10 cfu/ml) at min: 10” value [3] was 6.5 log10 cfu/ml. For the same substance, the “E. coli O157:H7 (log10 cfu/ml) at min: 20” value [3] was 6.5 log10 cfu/ml, the “E. coli O157:H7 (log10 cfu/ml) at min: 0” value [4] was 7.2 log10 cfu/ml and the “E. coli O157:H7 (log10 cfu/ml) at min: 1” value [4] was 7.0 log10 cfu/ml. The “E. coli O157:H7 (log10 cfu/ml) at min: 5” value [4] was 7.1 log10 cfu/ml, the “E. coli O157:H7 (log10 cfu/ml) at min: 10” value [4] was 7.0 log10 cfu/ml and the “E. coli O157:H7 (log10 cfu/ml) at min: 20” value [4] was 7.1 log10 cfu/ml. The “E. coli O157:H7 (log10 cfu/ml) at min: 0” value [5] was 5.6 log10 cfu/ml, the “E. coli O157:H7 (log10 cfu/ml) at min: 1” value [5] was 5.6 log10 cfu/ml and the “E. coli O157:H7 (log10 cfu/ml) at min: 5” value [5] was 5.6 log10 cfu/ml. For the same substance, the “E. coli O157:H7 (log10 cfu/ml) at min: 10” value [5] was 5.8 log10 cfu/ml, the “E. coli O157:H7 (log10 cfu/ml) at min: 20” value [5] was 5.6 log10 cfu/ml and the “effect on killing E. coli O157:H7” value (chlorine 5 ppm, rumen content at ratios of 50:1 and higher) was “minimal effect”.
